Assay results taken from ChEMBL document CHEMBL1154785, “Identification of critical ligand binding determinants in Mycobacterium tuberculosis adenosine-5'-phosphosulfate reductase” (J Med Chem, 2009).

Assay: Binding affinity to Mycobacterium tuberculosis adenosine-5'-phosphosulfate reductase assessed as S-sulfocysteine formation at pH 5.5 by single turnover method in absence of thioredoxin

Nc1ncnc2c1ncn2[C@@H]1O[C@H](COP(=O)(O)OP(=O)(O)F)[C@@H](O)[C@H]1O
Kd: 2.5 µM
